Measured values from patent US20250353853A1, “FLAVIVIRUS INHIBITORS” (IRBM S.P.A., priority 2022, published 2025).

Chains of the proteins cited; added tags and fusions are not shown. Residues count along the entry.
UniProt P32886, 1505-1684 limits assumed: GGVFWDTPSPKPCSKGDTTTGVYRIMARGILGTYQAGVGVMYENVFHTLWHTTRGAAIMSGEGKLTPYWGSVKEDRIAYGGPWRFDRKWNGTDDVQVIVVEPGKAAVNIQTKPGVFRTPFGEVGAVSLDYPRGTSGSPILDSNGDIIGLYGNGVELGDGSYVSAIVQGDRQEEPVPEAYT

target: Japanese encephalitis virus (JEV)-NS2B-NS3 protease (Japanese encephalitis virus (strain Jaoars982) (JEV), UniProt P32886); assay: JEV Protease Inhibition Assay

Row | Structure (SMILES) | IC50 [nM]
1 | O=C([N-]c1c[n+](CCc2ccccc2)no1)Nc1cccc(C(F)(F)F)c1 [Example 5, (3-phenethyl-1,2,3-oxadiazol-3-ium-5-yl)((3-(trifluoromethyl)phenyl)carbamoyl)amide] | 1000 to 20000
2 | O=C([N-]c1c[n+](Cc2ccccc2)no1)Nc1cccc(C(F)(F)F)c1 [Example 6, (3-Benzyl-1,2,3-oxadiazol-3-ium-5-yl)((3-(trifluoromethyl)phenyl)carbamoyl) amide] | 1000 to 20000
3 | O=C([N-]c1c[n+](Cc2ccc(Br)cc2)no1)Nc1cccc(C(F)(F)F)c1 [Example 19, (3-(4-bromobenzyl)-1,2,3-oxadiazol-3-ium-5-yl)((3-(trifluoromethyl)phenyl)carbamoyl)amide] | 1000 to 20000
4 | Cc1ccccc1-c1ccc(C[n+]2cc([N-]C(=O)Nc3cccc(C(F)(F)F)c3)on2)cc1 [Example 21, (3-((2′-methyl-[1,1′-biphenyl]-4-yl)methyl)-1,2,3-oxadiazol-3-ium-5-yl)((3-(trifluoromethyl)phenyl)carbamoyl)amide] | 1000 to 20000
5 | O=C([N-]c1c[n+](Cc2ccc(-c3cccnc3)cc2)no1)Nc1cccc(C(F)(F)F)c1 [Example 22, (3-(4-(pyridin-3-yl)benzyl)-1,2,3-oxadiazol-3-ium-5-yl)((3-(trifluoromethyl)phenyl)carbamoyl)amide] | 1000 to 20000
6 | O=C([N-]c1c[n+](Cc2ccc(-c3cncnc3)cc2)no1)Nc1cccc(C(F)(F)F)c1 [Example 26, (3-(4-(Pyrimidin-5-yl)benzyl)-1,2,3-oxadiazol-3-ium-5-yl)((3-(trifluoromethyl)phenyl)carbamoyl)amide] | 1000 to 20000
7 | O=C([N-]c1c[n+](Cc2cccc(-c3ccccc3)c2)no1)Nc1cccc(C(F)(F)F)c1 [Example 27, (3-([1,1′-biphenyl]-3-ylmethyl)-1,2,3-oxadiazol-3-ium-5-yl)((3-(trifluoromethyl)phenyl)carbamoyl)amide] | 1000 to 20000
8 | CC(C[n+]1cc([N-]C(=O)Nc2cccc(C(F)(F)F)c2)on1)c1ccccc1 (stereo not shown) [Example 28, (3-(2-phenylpropyl)-1,2,3-oxadiazol-3-ium-5-yl)((3-(trifluoromethyl)phenyl)carbamoyl)amide] | 1000 to 20000
9 | O=C([N-]c1c[n+](Cc2cccnc2)no1)Nc1cccc(C(F)(F)F)c1 [Example 29, (3-(pyridin-3-ylmethyl)-1,2,3-oxadiazol-3-ium-5-yl)((3-(trifluoromethyl)phenyl)carbamoyl)amide] | 100 to 1000
10 | O=C([N-]c1c[n+]([C@@H](CO)c2ccccc2)no1)Nc1cccc(C(F)(F)F)c1 [Example 30, (R)-(3-(2-hydroxy-1-phenylethyl)-1,2,3-oxadiazol-3-ium-5-yl)((3-(trifluoromethyl)phenyl)carbamoyl)amide] | 1000 to 20000
11 | CC(c1ccccc1)[n+]1cc([N-]C(=O)Nc2cccc(C(F)(F)F)c2)on1 (stereo not shown) [Example 38, (3-(1-phenylethyl)-1,2,3-oxadiazol-3-ium-5-yl)((3-(trifluoromethyl)phenyl)carbamoyl)amide] | 1000 to 20000
12 | O=C([N-]c1c[n+](Cc2ccc(-c3ccncc3)cc2)no1)Nc1cccc(C(F)(F)F)c1 [Example 39, (3-(4-(pyridin-4-yl)benzyl)-1,2,3-oxadiazol-3-ium-5-yl)((3-(trifluoromethyl)phenyl)carbamoyl)amide] | 1000 to 20000
13 | COc1ncc(-c2ccc(C[n+]3cc([N-]C(=O)Nc4cccc(C(F)(F)F)c4)on3)cc2)cn1 [Example 41, (3-(4-(2-methoxypyrimidin-5-yl)benzyl)-1,2,3-oxadiazol-3-ium-5-yl)((3-(trifluoromethyl)phenyl)carbamoyl)amide] | 1000 to 20000
14 | O=C([N-]c1c[n+](Cc2ccc(-c3cnccn3)cc2)no1)Nc1cccc(C(F)(F)F)c1 [Example 42, (3-(4-(pyrazin-2-yl)benzyl)-1,2,3-oxadiazol-3-ium-5-yl)((3-(trifluoromethyl)phenyl)carbamoyl)amide] | 1000 to 20000
15 | O=C([N-]c1c[n+](Cc2cccc(Br)c2)no1)Nc1cccc(C(F)(F)F)c1 [Example 46, (3-(3-bromobenzyl)-1,2,3-oxadiazol-3-ium-5-yl)((3-(trifluoromethyl)phenyl)carbamoyl)amide] | 1000 to 20000
16 | O=C([N-]c1c[n+](Cc2ccc(I)cc2)no1)Nc1cccc(C(F)(F)F)c1 [Example 47, (3-(4-iodobenzyl)-1,2,3-oxadiazol-3-ium-5-yl)((3-(trifluoromethyl)phenyl)carbamoyl)amide] | 1000 to 20000
17 | O=C([N-]c1c[n+](Cc2ccc(-c3cnoc3)cc2)no1)Nc1cccc(C(F)(F)F)c1 [Example 48, (3-(4-(isoxazol-4-yl)benzyl)-1,2,3-oxadiazol-3-ium-5-yl)((3-(trifluoromethyl)phenyl)carbamoyl)amide] | 1000 to 20000
18 | O=C([N-]c1c[n+](Cc2cccc(-c3cncnc3)c2)no1)Nc1cccc(C(F)(F)F)c1 [Example 50, (3-(3-(Pyrimidin-5-yl)benzyl)-1,2,3-oxadiazol-3-ium-5-yl)((3-(trifluoromethyl)phenyl)carbamoyl)amide] | 1000 to 20000
19 | O=C([N-]c1c[n+](Cc2cccc(-c3cccnc3)c2)no1)Nc1cccc(C(F)(F)F)c1 [Example 51, (3-(3-(pyridin-3-yl)benzyl)-1,2,3-oxadiazol-3-ium-5-yl)((3-(trifluoromethyl)phenyl)carbamoyl)amide] | 1000 to 20000
20 | Cn1cc(-c2cccc(C[n+]3cc([N-]C(=O)Nc4cccc(C(F)(F)F)c4)on3)c2)cn1 [Example 52, (3-(3-(1-methyl-1H-pyrazol-4-yl)benzyl)-1,2,3-oxadiazol-3-ium-5-yl)((3-(trifluoromethyl)phenyl)carbamoyl)amide] | 1000 to 20000
21 | COc1ncc(-c2cccc(C[n+]3cc([N-]C(=O)Nc4cccc(C(F)(F)F)c4)on3)c2)cn1 [Example 53, (3-(3-(2-methoxypyrimidin-5-yl)benzyl)-1,2,3-oxadiazol-3-ium-5-yl)((3-(trifluoromethyl)phenyl)carbamoyl)amide] | 1000 to 20000
22 | Cc1ncncc1-c1ccc(C[n+]2cc([N-]C(=O)Nc3cccc(C(F)(F)F)c3)on2)cc1 [Example 60, (3-(4-(4-methylpyrimidin-5-yl)benzyl)-1,2,3-oxadiazol-3-ium-5-yl)((3-(trifluoromethyl)phenyl)carbamoyl)amide] | 100 to 1000
23 | O=C([N-]c1c[n+](Cc2ccc(-c3ccnnc3)cc2)no1)Nc1cccc(C(F)(F)F)c1 [Example 61, (3-(4-(pyridazin-4-yl)benzyl)-1,2,3-oxadiazol-3-ium-5-yl)((3-(trifluoromethyl)phenyl)carbamoyl)amide] | 1000 to 20000
24 | COc1ncncc1-c1ccc(C[n+]2cc([N-]C(=O)Nc3cccc(C(F)(F)F)c3)on2)cc1 [Example 62, (3-(4-(4-methoxypyrimidin-5-yl)benzyl)-1,2,3-oxadiazol-3-ium-5-yl)((3-(trifluoromethyl)phenyl)carbamoyl)amide] | 1000 to 20000
25 | COc1cc(-c2ccc(C[n+]3cc([N-]C(=O)Nc4cccc(C(F)(F)F)c4)on3)cc2)ccn1 [Example 63, (3-(4-(2-methoxypyridin-4-yl)benzyl)-1,2,3-oxadiazol-3-ium-5-yl)((3-(trifluoromethyl)phenyl)carbamoyl)amide] | 1000 to 20000
26 | O=C([N-]c1c[n+](Cc2ccc(-c3cncnc3)nc2)no1)Nc1cccc(C(F)(F)F)c1 [Example 103, (3-((6-(pyrimidin-5-yl)pyridin-3-yl)methyl)-1,2,3-oxadiazol-3-ium-5-yl)((3-(trifluoromethyl)phenyl)carbamoyl)amide] | 100 to 1000
27 | Cc1ncnc(C)c1-c1ccc(C[n+]2cc([N-]C(=O)Nc3ccnc(C(F)(F)F)c3)on2)cc1 [Example 185, (3-(4-(4,6-dimethylpyrimidin-5-yl)benzyl)-1,2,3-oxadiazol-3-ium-5-yl)((2-(trifluoromethyl)pyridin-4-yl)carbamoyl)amide] | 1000 to 20000
28 | Cc1noc(C)c1-c1ccc(C[n+]2cc([N-]C(=O)Nc3ccnc(C(F)(F)F)c3)on2)cc1 [Example 186, (3-(4-(3,5-dimethylisoxazol-4-yl)benzyl)-1,2,3-oxadiazol-3-ium-5-yl)((2-(trifluoromethyl)pyridin-4-yl)carbamoyl)amide] | 1000 to 20000
